Reference: PubChem BioAssay AID1800 (The Scripps Research Institute Molecular Screening Center, 2009)
Only a part is listed here, and it is no random draw. The source made the active and inactive calls.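 The calls were made as follows: active = inhibition above the mean of all tested compounds plus 3 SD, set per campaign (cut at about 35% in these data); inactive = the rest.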

What follows are compounds tested on Hepatitis C virus NS3 helicase (assay: inhibitors of HCV NS3 helicase, primary screen, biochemical, Cy5 molecular beacon fluorescence (AID 1800;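 also: 0% = DMSO wells and 100% = thioflavine S control wells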)). Settings: NS3 helicase DNA unwinding, at 10.9 µM, hits give high values.
Method in brief: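 assay system = NS3 helicase fragment of HCV | buffer or medium = MOPS pH 6.5, MgCl2, DTT, Tween20, BSA | timing = 60 min unwinding reaction at 25 °C after ATP addition | signal = Cy5 beacon fluorescence read at start and 1 h | read-out basis = % inhibition of unwinding | control set = low DMSO, high thioflavine S at 110 µM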

| Compound | inhibition |
| --- | --- |
| Cc1cc(C)cc(OP(C)(=O)Nc2cccc(C(F)(F)F)c2)c1 (centres undefined) | inactive: -1.73% |
| COc1ccccc1OP(C)(=O)Nc1ccc(C)c(C)c1 (centres undefined) | inactive: -10.2% |
| COc1ccc(OP(C)(=O)Nc2ccccc2Br)cc1 (centres undefined) | inactive: 4.67% |
| Cc1nc2ccc3ccccc3c2o1.O=[N+]([O-])c1cc([N+](=O)[O-])c(O)c([N+](=O)[O-])c1 | inactive: -17.1% |
| CP(=O)(OCCOc1ccccc1)OCCOc1ccccc1 | inactive: -2.68% |
| CP(=O)(Nc1ccc(Cl)cc1Cl)Oc1ccccc1 (centres undefined) | inactive: 2.06% |
| COc1ccccc1OP(C)(=O)Nc1ccc(Br)cc1 (centres undefined) | inactive: -4.8% |
| COc1ccc(OP(C)(=O)Nc2ccccn2)cc1 (centres undefined) | inactive: 3.47% |
| CN(C)CCOC(=O)C(O)(c1ccccc1)C1CCCC1 (centres undefined) | inactive: -1.39% |
| O=[N+]([O-])c1cc([N+](=O)[O-])c(Nc2ccccn2)c([N+](=O)[O-])c1 | inactive: -3.99% |
| Cc1c(NP(C)(=O)Oc2ccc(C(C)C)cc2)c(=O)n(-c2ccccc2)n1C (centres undefined) | inactive: 0.86% |
| COc1ccccc1OP(C)(=O)Nc1ccc(C)cc1C (centres undefined) | inactive: -8.43% |
| CP(=O)(Nc1ccccn1)Oc1ccccc1 (centres undefined) | inactive: 1.82% |
| CCc1ccc(OP(C)(=O)O)cc1 | inactive: 7.9% |
| COc1ccc(OP(C)(=O)Nc2ccc(Br)cc2)cc1 (centres undefined) | inactive: 7.85% |
| CCN(CC)CC(O)COC(=O)C(O)(c1ccccc1)C1CCCCC1 (centres undefined) | inactive: -1.68% |
| O=C(OCCCN1CCCC1)C(O)(c1ccccc1)C1CCCCC1 (centres undefined) | inactive: -16.6% |
| COc1ccccc1OP(C)(=O)Nc1c(C)n(C)n(-c2ccccc2)c1=O (centres undefined) | inactive: 10.6% |
| CCc1ccc(OP(C)(=O)Nc2cccnc2)cc1 (centres undefined) | inactive: 4.55% |
| CP(=O)(Oc1ccccc1)N1CCOC1=O (centres undefined) | inactive: 2.31% |
| CC(C)(C)c1ccc(OP(C)(=O)O)cc1 | inactive: -0.51% |

| Compound | inhibition |
| --- | --- |
| COc1ccccc1OP(C)(=O)Nc1ccccc1Br (centres undefined) | inactive: -3.99% |
| CP(=O)(Nc1ccc(Cl)cc1)Oc1ccc(F)cc1 (centres undefined) | inactive: 3.77% |
| CN(C)C(=O)c1c([N+](=O)[O-])cc([N+](=O)[O-])cc1[N+](=O)[O-] | inactive: 13.2% |
| CCOC(=O)c1ccc(NP(C)(=O)Oc2ccc(Cl)cc2)cc1 (centres undefined) | inactive: -11.6% |
| CP(=O)(OC12CC3CC(CC(C3)C1)C2)OC12CC3CC(CC(C3)C1)C2 | inactive: -9.65% |
| COc1ccc(OP(C)(=O)Nc2cccc(Br)c2)cc1 (centres undefined) | inactive: 4.27% |
| CN(C)CCOC(=O)C(O)(c1ccccc1)C1CCCCC1 (centres undefined) | inactive: 1.56% |
| COc1ccc(NP(C)(=O)Oc2ccccc2OC)cc1 (centres undefined) | inactive: 3.45% |
| O=[N+]([O-])c1ccc(OP2(=O)COCCO2)cc1 (centres undefined) | inactive: -2.2% |
| O=[N+]([O-])c1cc([N+](=O)[O-])c(NCC2CCS(=O)(=O)C2)c([N+](=O)[O-])c1 (centres undefined) | inactive: 10.8% |
| Cc1cc(-c2cccc3ccccc23)c(C)cn1.O=[N+]([O-])c1cc([N+](=O)[O-])c(O)c([N+](=O)[O-])c1 | inactive: 1.88% |
| CP(=O)(Nc1ccc(SC(F)(F)F)cc1)Oc1ccc(F)cc1 (centres undefined) | inactive: -7.13% |
| CCOP(C)(=S)SCC(=O)NC(C)(CC)C(=O)O (centres undefined) | inactive: 9.56% |
| CP(=O)(Nc1ccc2c(c1)OCCO2)Oc1ccccc1 (centres undefined) | inactive: -9.18% |
| Cc1ccccc1NP(C)(=O)Nc1ccccc1C | inactive: -6.99% |
| CP(=O)(Nc1ccccc1F)Oc1ccccc1 (centres undefined) | inactive: 5.92% |
| CC(C)c1ccc(OP(C)(=O)Nc2ccc(SC(F)(F)F)cc2)cc1 (centres undefined) | inactive: -8.44% |
| O=C(OC1CN2CCC1CC2)c1ccc([N+](=O)[O-])cc1 (centres undefined) | inactive: 5.61% |
| O=C(OCCN1CCN(CCOCc2ccccc2)CC1)C(O)(c1ccccc1)c1ccccc1 | inactive: -36.7% |
| CCOC(=O)c1ccc(NP(C)(=O)Oc2ccc(F)cc2)cc1 (centres undefined) | inactive: -7.37% |
| COc1ccc(OP(C)(=O)Nc2ccc(SC(F)(F)F)cc2)cc1 (centres undefined) | inactive: -1.27% |

| Compound | inhibition |
| --- | --- |
| CCN(CC)CCCOC(=O)C(O)(c1ccccc1)C1CCCCC1 (centres undefined) | inactive: -0.09% |
| CP(=O)(Nc1ccccc1)Oc1ccc(F)cc1 (centres undefined) | inactive: -7.15% |
| O=[N+]([O-])c1cc([N+](=O)[O-])c(OC2CCCCC2O)c([N+](=O)[O-])c1 (centres undefined) | inactive: 8.92% |
| CCCCCOc1ccc(NP(C)(=O)Oc2ccc(Cl)cc2Cl)cc1 (centres undefined) | inactive: 20.9% |
| O=C(O)c1cccc(Nc2c([N+](=O)[O-])cc([N+](=O)[O-])cc2[N+](=O)[O-])c1 | inactive: 18.8% |
| CC1=NCCc2c1[nH]c1ccccc21.O=[N+]([O-])c1cc([N+](=O)[O-])c(O)c([N+](=O)[O-])c1 | inactive: -73.5% |
| COc1ccccc1OP(C)(=O)Nc1cccc(Br)c1 (centres undefined) | inactive: 13.9% |
| CCOC(=O)c1ccc(NP(C)(=O)Oc2cc(C)cc(C)c2)cc1 (centres undefined) | inactive: -9.15% |
| Cc1cc(C)cc(OP(C)(=O)Nc2ccc(C)cc2C)c1 (centres undefined) | inactive: -9.89% |
| Cc1ccc(C)c(NP(C)(=O)Oc2ccccc2)c1 (centres undefined) | inactive: 2.37% |
| CP(=O)(Nc1cccc(Br)c1)Oc1ccccc1 (centres undefined) | inactive: -10.9% |
| Cc1cc(C)cc(OP(C)(=O)Nc2ccccn2)c1 (centres undefined) | inactive: 6.21% |
| O=[N+]([O-])c1cc([N+](=O)[O-])c(-n2nnc3ccccc32)c([N+](=O)[O-])c1 | inactive: 2.6% |
| Cc1nc2ccc3ccccc3c2s1.O=[N+]([O-])c1cc([N+](=O)[O-])c(O)c([N+](=O)[O-])c1 | inactive: 2.39% |
| CCOC(=O)C(CC)C1=NC(C)(C)Cc2ccccc21.O=[N+]([O-])c1cc([N+](=O)[O-])c(O)c([N+](=O)[O-])c1 (centres undefined) | inactive: -0.24% |
| O=[N+]([O-])c1cc([N+](=O)[O-])c(Nc2nnnn2CCO)c([N+](=O)[O-])c1 | inactive: -5.36% |
| CN1CCCCC1COC(=O)C1(O)c2ccccc2CCc2ccccc21 (centres undefined) | inactive: -7.52% |
| COc1ccccc1OP(C)(=O)Nc1c(C)cccc1C (centres undefined) | inactive: -2.64% |
| CP(=O)(Nc1ccc(SC(F)(F)F)cc1)Oc1ccccc1 (centres undefined) | inactive: 3.58% |
| CCCOc1ccc(NP(C)(=O)Oc2ccc(Cl)cc2)cc1 (centres undefined) | inactive: -10.5% |
| CP(=S)(Nn1cnnc1)Oc1ccccc1 (centres undefined) | inactive: -7.42% |

| Compound | inhibition |
| --- | --- |
| CP(=O)(Nc1ccccc1Br)Oc1ccccc1 (centres undefined) | inactive: -9.8% |
| COc1ccccc1OP(C)(=O)Nc1ccccc1 (centres undefined) | inactive: 4.76% |
| CP(=O)(Oc1ccccc1)OC(c1ccccc1)C(F)(F)F (centres undefined) | inactive: -0.11% |
| CP(=O)(Nc1ccc(SC(F)(F)F)cc1)Oc1ccc(Cl)cc1 (centres undefined) | inactive: -16.2% |
| Cc1cccc(C)c1OP(C)(=O)Nc1ccc(SC(F)(F)F)cc1 (centres undefined) | inactive: -3.94% |
| Cc1cc(C)cc(OP(C)(=O)Nc2ccc(SC(F)(F)F)cc2)c1 (centres undefined) | inactive: -3.55% |
| CCc1ccc(OP(C)(=O)N2CCN(c3ccc([N+](=O)[O-])cc3)CC2)cc1 (centres undefined) | inactive: -4.65% |
| CP(=O)(NC(=O)Nc1ccccc1)Oc1ccccc1 (centres undefined) | inactive: -0.28% |
| CCOC(=O)c1ccc(NP(C)(=O)Oc2ccc(OC)cc2)cc1 (centres undefined) | inactive: -11.9% |
| CCOP(C)(=S)SCC(=O)NC(C)C(=O)O (centres undefined) | inactive: 2.02% |
| CP(=O)(Nc1ccccn1)Oc1ccc(Cl)cc1 (centres undefined) | inactive: -1.32% |
| CCN(CC)CCCOC(=O)C(O)(c1ccccc1)c1ccccc1 | inactive: -4.35% |
| O=[N+]([O-])c1ccc2c(c1)C=Nc1ccccc1O2 | inactive: -21.4% |
| Cc1cccc(C)c1OP(C)(N)=O (centres undefined) | inactive: -3.19% |
| CC(C)(C)c1ccc(OP(C)(=O)Nc2ccc(SC(F)(F)F)cc2)cc1 (centres undefined) | inactive: -9.4% |
| Cc1ccc(NP(C)(=O)Oc2ccccc2)c(C)c1 (centres undefined) | inactive: -9.51% |
| COc1ccccc1OP(C)(=O)Nc1ccc(C)cc1 (centres undefined) | inactive: 2.12% |
| CCOC(=O)c1ccc(NP(C)(=O)Oc2ccccc2)cc1 (centres undefined) | inactive: -1.15% |
| Cc1cc(C)cc(OP(C)(N)=O)c1 (centres undefined) | inactive: 12.8% |
| COc1ccc(OP(C)(=O)Nc2cccc(F)c2)cc1 (centres undefined) | inactive: 0.18% |
| COc1ccccc1OP(C)(=O)Nc1cc(Cl)ccc1C (centres undefined) | inactive: 5.12% |
